Measured values published in patent US8175860B2, “Method of inhibiting the growth of Helicobacter pylori” (priority 2009, dated 2012).

The chains behind the UniProt entries cited, without tags or fusion partners.
UniProt P9WPY3, whole entry: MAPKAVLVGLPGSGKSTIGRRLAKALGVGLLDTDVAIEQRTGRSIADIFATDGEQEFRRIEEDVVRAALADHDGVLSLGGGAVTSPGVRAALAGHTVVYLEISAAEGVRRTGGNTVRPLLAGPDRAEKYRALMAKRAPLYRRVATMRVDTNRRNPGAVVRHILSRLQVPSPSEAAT

Biological target: MtSK (M. tuberculosis shikimate kinase) (Mycobacterium tuberculosis, UniProt P9WPY3)
Assay: Shikimate kinase inhibitor activity assay (pyruvate kinase/lactate dehydrogenase coupled), MtSK
Format: biochemical

O=C(NNC(=O)C1c2ccccc2Oc2ccccc21)c1cccc([N+](=O)[O-])c1
IC50: > 50 µM
